Tested on: TgPPT1
Experiment: Intact parasite labeling, in-gel fluorescence
Type: cell-based, Toxoplasma gondii
Conditions: intact wild-type tachyzoites, same probe concentration

fluorophosphonate rhodamine
Labeling of TgPPT1 in intact T. gondii tachyzoites: unable to label TgPPT1 in intact parasites

Source: PMC5783350, “Development of an activity-based probe for acyl-protein thioesterases” (PLoS ONE, 2018)
